# From patent US20100016367A1, “BIS-PYRINIDIUM COMPOUNDS” (priority 2006, published 2010)
# Amino acid sequences for entries named in this document (tags omitted). A change or cut given only in a name is not applied to a line headed by its entry.
# UniProt Q9P8P2: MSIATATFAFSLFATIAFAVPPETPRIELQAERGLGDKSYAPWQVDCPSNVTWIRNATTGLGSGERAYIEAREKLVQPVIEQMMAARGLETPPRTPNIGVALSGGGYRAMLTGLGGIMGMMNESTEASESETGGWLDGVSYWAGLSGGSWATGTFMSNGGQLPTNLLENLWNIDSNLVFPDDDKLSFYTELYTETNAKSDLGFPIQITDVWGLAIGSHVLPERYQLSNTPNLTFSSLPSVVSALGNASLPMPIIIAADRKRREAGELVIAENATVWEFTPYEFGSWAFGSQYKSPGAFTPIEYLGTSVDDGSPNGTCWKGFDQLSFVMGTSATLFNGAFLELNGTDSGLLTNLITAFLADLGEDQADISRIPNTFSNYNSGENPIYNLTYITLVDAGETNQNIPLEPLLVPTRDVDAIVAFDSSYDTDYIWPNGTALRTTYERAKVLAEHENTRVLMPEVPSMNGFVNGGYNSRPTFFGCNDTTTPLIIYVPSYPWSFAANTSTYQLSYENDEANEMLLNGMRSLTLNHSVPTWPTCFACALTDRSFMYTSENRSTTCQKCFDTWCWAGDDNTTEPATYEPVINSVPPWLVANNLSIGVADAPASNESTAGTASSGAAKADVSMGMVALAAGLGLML
# Values joined by “and” are separate entries in the source; they are usually repeats but may differ in a detail not shown here. Identical values can stand only once.
# Columns and labels:
# C. neoformans ATCC 90112 = assay: Antifungal susceptibility assay, MIC; format: cell-based, Cryptococcus neoformans; conditions: for In vitro antifungal activity, Cryptococcus neoformans ATCC 90112: Table 2
# C. albicans ATCC 10231 = assay: Antifungal susceptibility assay, MIC; format: cell-based, Candida albicans; conditions: for In vitro antifungal activity, Candida albicans ATCC 10231: Table 2
# C. albicans ATCC 90028 = assay: Antifungal MIC, broad spectrum; format: cell-based, Candida albicans; conditions: Table 1b
# C. krusei 04-202328 = assay: Antifungal MIC, broad spectrum; format: cell-based, Candida krusei; conditions: Table 1b
# C. krusei ATCC 6258 = assay: Antifungal MIC, broad spectrum; format: cell-based, Candida krusei; conditions: Table 1b
# C. krusei ATCC 9258 = assay: Antifungal MIC, broad spectrum; format: cell-based, Candida krusei; conditions: Table 1b
# [1] = test system: C. parapsilosis 04-202398; assay: Antifungal MIC, broad spectrum; format: cell-based, Candida parapsilosis; conditions: Table 1b
# [2] = test system: C. parapsilosis ATCC 22019; assay: Antifungal MIC, broad spectrum; format: cell-based, Candida parapsilosis; conditions: Table 1b
# C. glabrata 04-202345 = assay: Antifungal MIC, broad spectrum; format: cell-based, Candida glabrata; conditions: Table 1b
# C. tropicalis 04-202361 = assay: Antifungal MIC, broad spectrum; format: cell-based, Candida tropicalis; conditions: Table 1b
# C. neoformans 05-202523 = assay: Antifungal MIC, broad spectrum; format: cell-based, Cryptococcus neoformans; conditions: Table 1b
# C. gattii 05-200122 = assay: Antifungal MIC, broad spectrum; format: cell-based, Cryptococcus gattii; conditions: Table 1b
# A. fumigatus 05-203114 = assay: Antifungal MIC, broad spectrum; format: cell-based, Aspergillus fumigatus; conditions: Table 1b
# A. fumigatus ATCC 204305 = assay: Antifungal MIC, broad spectrum; format: cell-based, Aspergillus fumigatus; conditions: Table 1b
# A. flavus 05-203758 = assay: Antifungal MIC, broad spectrum; format: cell-based, Aspergillus flavus; conditions: Table 1b
# A. flavus ATCC 204304 = assay: Antifungal MIC, broad spectrum; format: cell-based, Aspergillus flavus
# A. terreus 05-202844 = assay: Antifungal MIC, broad spectrum; format: cell-based, Aspergillus terreus; conditions: Table 1b
# S. prolificans 05-203060 = assay: Antifungal MIC, broad spectrum; format: cell-based, Scedosporium prolificans; conditions: Table 1b
# S. apiospermum 05-203100 = assay: Antifungal MIC, broad spectrum; format: cell-based, Scedosporium apiospermum; conditions: Table 1b
# [3] = test system: Cunninghamella berth 99-12187; assay: Antifungal MIC, broad spectrum; format: cell-based, Cunninghamella bertholletiae; conditions: Table 1b
# [4] = test system: Absidia corymbifera 04-200170; assay: Antifungal MIC, broad spectrum; format: cell-based; conditions: Table 1b
# [5] = test system: Exophiala jeanselmei 03-200268; assay: Antifungal MIC, broad spectrum; format: cell-based; conditions: Table 1b
# [6] = test system: Exophiala spinifera 03-200803; assay: Antifungal MIC, broad spectrum; format: cell-based; conditions: Table 1b
# [7] = test system: Fusarium solani 04-203102; assay: Antifungal MIC, broad spectrum; format: cell-based; conditions: Table 1b
# [8] = test system: Paecilomyces lilacinus 05-200601; assay: Antifungal MIC, broad spectrum; format: cell-based; conditions: Table 1b
# [9] = test system: Rhizopus oryzae 05-203111; assay: Antifungal MIC, broad spectrum; format: cell-based; conditions: Table 1b
# Epidermophyton floccosum = assay: In-vitro activity against dermatophytes, MIC; format: cell-based; conditions: 5 isolates
# Microsporum canis = assay: In-vitro activity against dermatophytes, MIC; format: cell-based; conditions: 5 isolates
# Microsporum cookie = assay: In-vitro activity against dermatophytes, MIC; format: cell-based; conditions: 2 isolates
# Microsporum gypseum = assay: In-vitro activity against dermatophytes, MIC; format: cell-based; conditions: 5 isolates
# [10] = test system: Trichophyton mentagrophytes; assay: In-vitro activity against dermatophytes, MIC; format: cell-based; conditions: 18 isolates
# Trichophyton rubrum = assay: In-vitro activity against dermatophytes, MIC; format: cell-based; conditions: 20 isolates
# Trichophyton soudanense = assay: In-vitro activity against dermatophytes, MIC; format: cell-based; conditions: 3 isolates
# Trichophyton tonsurans = assay: In-vitro activity against dermatophytes, MIC; format: cell-based; conditions: 16 isolates
# Trichophyton violaceum = assay: In-vitro activity against dermatophytes, MIC; format: cell-based; conditions: 3 isolates
# [11] = biological target: Secretory Cryptococcal H99 Phospholipase B (PLB) (Cryptococcus neoformans, UniProt Q9P8P2); assay: Phospholipase inhibition, radiometric assay; format: biochemical, C. neoformans var. grubii; conditions: read-out: Concentration required for 50% inhibition of PLB; secreted PLB activity, pH 4.0, 37° C.
# Escherichia coli 25922 = assay: In vitro antibacterial MIC; conditions: Gram-negative; listed as 1,12-bis(4-pentylpyridinium)dodecane
# [12] = test system: MRSA (methicillin resistant S. aureus); assay: In vitro antibacterial MIC; conditions: Gram-positive; listed as 1,12-bis(4-pentylpyridinium)dodecane
# [13] = test system: Pseudomonas aeruginosa 122; assay: In vitro antibacterial MIC; conditions: Gram-negative; listed as 1,12-bis(4-pentylpyridinium)dodecane
# [14] = test system: Staphylococcus aureus 25923; assay: In vitro antibacterial MIC; conditions: Gram-positive; listed as 1,12-bis(4-pentylpyridinium)dodecane
# [15] = test system: Streptococcus pneumonia 49619; assay: In vitro antibacterial MIC; conditions: Gram-positive; listed as 1,12-bis(4-pentylpyridinium)dodecane
# [16] = test system: VRE (Vancomycin resistant Enterococcus); assay: In vitro antibacterial MIC; conditions: Gram-positive; listed as 1,12-bis(4-pentylpyridinium)dodecane
# [17] = test system: Aspergillus terreus ATCC 03-232-378; assay: In vitro antifungal activity vs Amphotericin B; conditions: Table 2
# [18] = test system: Fusarium solani 04-132-4207; assay: In vitro antifungal activity vs Amphotericin B; conditions: Table 2
# [19] = test system: Scedosporium apiospermum 1-003-056; assay: In vitro antifungal activity vs Amphotericin B; conditions: Table 2
# [20] = test system: Scedosporium prolificans 1-003-040; assay: In vitro antifungal activity vs Amphotericin B; conditions: Table 2
# [21] = listed as 1,12-bis(4-pentylpyridinium)dodecane
compound,measurement,setting,value
CCCCCc1cc[n+](CCCCCCCCCCCC[n+]2ccc(CCCCC)cc2)cc1,MIC C. neoformans ATCC 90112,C. neoformans ATCC 90112; Table 1,2.7 µM
same,MIC C. neoformans ATCC 90112,C. neoformans ATCC 90112; Table 1b,2.75 µM
same,MIC C. neoformans ATCC 90112,C. neoformans ATCC 90112; Table 1c,2.75 µM
same,"In vitro antifungal activity, Cryptococcus neoformans ATCC 90112",C. neoformans ATCC 90112; [21],1.2 μg/ml and 2.2 μM
same,MIC C. albicans ATCC 10231,C. albicans ATCC 10231; Table 1,2.7 µM
same,MIC C. albicans ATCC 10231,C. albicans ATCC 10231; Table 1b,2.75 µM
same,MIC C. albicans ATCC 10231,C. albicans ATCC 10231; Table 1c,2.75 µM
same,"In vitro antifungal activity, Candida albicans ATCC 10231",C. albicans ATCC 10231; [21],0.6 μg/ml and 1.2 μM
same,MIC C. albicans ATCC 90028,C. albicans ATCC 90028,2.75 µM
same,MIC C. krusei 04-202328,C. krusei 04-202328,22 µM
same,MIC C. krusei ATCC 6258,C. krusei ATCC 6258,11 µM
same,MIC C. krusei ATCC 9258,C. krusei ATCC 9258,11 µM
same,MIC C. parapsilosis 04-202398,[1],87.5 µM
same,MIC C. parapsilosis ATCC 22019,[2],1.4 µM
same,MIC C. glabrata 04-202345,C. glabrata 04-202345,2.75 µM
same,MIC C. tropicalis 04-202361,C. tropicalis 04-202361,1.4 µM
same,MIC C. neoformans 05-202523,C. neoformans 05-202523,87.5 µM
same,MIC C. gattii 05-200122,C. gattii 05-200122,1.4 µM
same,MIC A. fumigatus 05-203114,A. fumigatus 05-203114,87.5 µM
same,MIC A. fumigatus ATCC 204305,A. fumigatus ATCC 204305,87.5 µM
same,MIC A. flavus 05-203758,A. flavus 05-203758,87.5 µM
same,MIC A. flavus ATCC 204304,A. flavus ATCC 204304; Table 1b,44 µM
same,MIC A. terreus 05-202844,A. terreus 05-202844,11 µM
same,MIC S. prolificans 05-203060,S. prolificans 05-203060,2.75 µM
same,MIC S. apiospermum 05-203100,S. apiospermum 05-203100,5.5 µM
same,MIC Cunninghamella berth 99-12187,[3],87.5 µM
same,MIC Absidia corymbifera 04-200170,[4],>87.5 µM
same,MIC Exophiala jeanselmei 03-200268,[5],1.4 µM
same,MIC Exophiala spinifera 03-200803,[6],0.7 µM
same,MIC Fusarium solani 04-203102,[7],87.5 µM
same,MIC Paecilomyces lilacinus 05-200601,[8],>87.5 µM
same,MIC Rhizopus oryzae 05-203111,[9],2.75 µM
same,"MIC GM, Epidermophyton floccosum",Epidermophyton floccosum,7.635 µg/mL
same,"MIC Range, Epidermophyton floccosum",Epidermophyton floccosum,2 to 16 µg/mL
same,"MIC GM, Microsporum canis",Microsporum canis,2.954 µg/mL
same,"MIC Range, Microsporum canis",Microsporum canis,1 to 4 µg/mL
same,"MIC GM, Microsporum cookie",Microsporum cookie,1.061 µg/mL
same,"MIC Range, Microsporum cookie",Microsporum cookie,0.5 to 2 µg/mL
same,"MIC GM, Microsporum gypseum",Microsporum gypseum,2.408 µg/mL
same,"MIC Range, Microsporum gypseum",Microsporum gypseum,1 to 4 µg/mL
same,"MIC50, Trichophyton mentagrophytes",[10],8 µg/mL
same,"MIC90, Trichophyton mentagrophytes",[10],16 µg/mL
same,"MIC GM, Trichophyton mentagrophytes",[10],9.007 µg/mL
same,"MIC Range, Trichophyton mentagrophytes",[10],2 to 32 µg/mL
same,"MIC GM (geometric mean of the MICs), Trichophyton rubrum",Trichophyton rubrum,10.41 µg/mL
same,"MIC Range, Trichophyton rubrum",Trichophyton rubrum,4 to 16 µg/mL
same,"MIC50, Trichophyton rubrum",Trichophyton rubrum; MIC at which 50% of the isolates were inhibited,8 µg/mL
same,"MIC90, Trichophyton rubrum",Trichophyton rubrum; MIC at which 90% of the isolates were inhibited,16 µg/mL
same,"MIC GM, Trichophyton soudanense",Trichophyton soudanense,14.54 µg/mL
same,"MIC Range, Trichophyton soudanense",Trichophyton soudanense,8 to 16 µg/mL
same,"MIC50, Trichophyton tonsurans",Trichophyton tonsurans,2 µg/mL
same,"MIC90, Trichophyton tonsurans",Trichophyton tonsurans,8 µg/mL
same,"MIC GM, Trichophyton tonsurans",Trichophyton tonsurans,2.802 µg/mL
same,"MIC Range, Trichophyton tonsurans",Trichophyton tonsurans,1 to 8 µg/mL
same,"MIC GM, Trichophyton violaceum",Trichophyton violaceum,8.963 µg/mL
same,"MIC Range, Trichophyton violaceum",Trichophyton violaceum,1 to 32 µg/mL
same,IC50,[11],12.5 µM
same,MIC Escherichia coli 25922,Escherichia coli 25922,5.9 μg/ml and 11 μM
same,MIC MRSA (methicillin resistant S. aureus),[12],1.45 μg/ml and 2.7 μM
same,MIC Pseudomonas aeruginosa 122,[13],86 μg/ml and 160 μM
same,MIC Staphylococcus aureus 25923,[14],3.0 μg/ml and 5.5 μM
same,MIC Streptococcus pneumonia 49619,[15],1.45 μg/ml and 2.7 μM
same,MIC VRE (Vancomycin resistant Enterococcus),[16],5.9 μg/ml and 11 μM
same,"In vitro antifungal activity, Aspergillus terreus ATCC 03-232-378",[17]; [21],0.7 μg/ml and 1.2 μM
same,"In vitro antifungal activity, Fusarium solani 04-132-4207",[18]; [21],47 μg/ml and 88 μM
same,"In vitro antifungal activity, Scedosporium apiospermum 1-003-056",[19]; [21],1.5 μg/ml and 2.8 μM
same,"In vitro antifungal activity, Scedosporium prolificans 1-003-040",[20]; [21],0.75 μg/ml and 1.4 μM
Amphotericin B,"In vitro antifungal activity, Cryptococcus neoformans ATCC 90112",C. neoformans ATCC 90112,0.50 μg/ml and 0.54 μM
same,"In vitro antifungal activity, Candida albicans ATCC 10231",C. albicans ATCC 10231,0.50 μg/ml and 0.54 μM
same,"In vitro antifungal activity, Aspergillus flavus ATCC 204 304",A. flavus ATCC 204304; Table 2,0.50 μg/ml and 0.54 μM
same,"In vitro antifungal activity, Aspergillus terreus ATCC 03-232-378",[17],1.0 μg/ml and 1.1 μM
same,"In vitro antifungal activity, Fusarium solani 04-132-4207",[18],0.25 μg/ml and 0.27 μM
same,"In vitro antifungal activity, Scedosporium apiospermum 1-003-056",[19],0.50 μg/ml and 0.54 μM
same,"In vitro antifungal activity, Scedosporium prolificans 1-003-040",[20],4.0 μg/ml and 4.3 μM
